Construct, isoform or probe ends are uncertain for at least one entry. At least one verdict rests on a figure or table, not on a statement of the authors. Where a protein sequence is shown, tags need not be part of it.

For the data set, the target named is T1, MecI (Staphylococcus aureus ATCC 43300) (UniProt P68261).
T1 sequence (looked up, limits assumed): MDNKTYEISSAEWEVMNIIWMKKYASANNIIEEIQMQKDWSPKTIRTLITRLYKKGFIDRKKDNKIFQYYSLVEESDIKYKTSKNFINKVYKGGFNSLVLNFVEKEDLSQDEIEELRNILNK
Description: EMSA. To be noted: no coactivator; 0.5 uM Cy5-OP1 + 13.5 uM repressor (ALF sequencer) or 2.5 uM DNA + 50 uM repressor (1% agarose); recombinant protein; protein details: C-terminal His6; label: 5'-Cy5 on printed strand. In general terms: In EMSA bound probe runs differently from free probe, usually more slowly.

Consider “GCATTTAAATCTTACATATGTAATACTTTC (double strand) [OP1 operator]”, for which the binding result is on record as “binds”.

These data come from article PMC3305447, “A Peptidoglycan Fragment Triggers β-lactam Resistance in Bacillus licheniformis” (PLoS Pathogens, 2012).
